For assay [1], the target named is T1, BKV serotype IV VP1 pentamer (BK virus (BKV) serotype IV, UniProt P14996 30-297).
T1 construct: also called serotype IV pentamers
T1 chain: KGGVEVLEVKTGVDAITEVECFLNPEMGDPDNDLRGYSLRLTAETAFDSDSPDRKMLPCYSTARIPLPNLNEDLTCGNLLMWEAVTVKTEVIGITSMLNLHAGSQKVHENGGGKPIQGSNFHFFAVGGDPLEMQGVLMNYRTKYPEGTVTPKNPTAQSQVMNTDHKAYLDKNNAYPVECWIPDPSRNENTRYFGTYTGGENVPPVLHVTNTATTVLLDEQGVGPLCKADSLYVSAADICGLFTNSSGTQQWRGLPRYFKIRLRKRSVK
The assay can be described thus: not stated in Table 3 (SET on pentamers is the affinity assay of the filing).

The target in assay [2] is T2, BKV serotype I VP1 pentamer (BK virus (BKV) serotype I, UniProt P03088 30-297).
T2 construct: also called serotype I pentamers; BKV-VP1 serotype I pentameric protein
T2 chain: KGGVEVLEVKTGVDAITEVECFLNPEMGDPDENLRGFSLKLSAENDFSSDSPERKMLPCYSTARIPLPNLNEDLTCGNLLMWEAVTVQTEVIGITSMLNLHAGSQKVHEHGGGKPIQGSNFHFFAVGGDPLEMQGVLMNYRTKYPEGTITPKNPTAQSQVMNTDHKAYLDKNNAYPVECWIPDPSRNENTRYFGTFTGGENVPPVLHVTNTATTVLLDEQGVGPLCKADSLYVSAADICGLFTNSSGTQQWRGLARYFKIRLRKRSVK
As to the kind of experiment: SPR (Biacore): antibody captured via protein A, VP1 pentamers flowed over. In general terms: Surface plasmon resonance follows binding to a sensor surface in real time, without labels.

The next assay deals with T3, BKV serotype III VLPs (BK virus (BKV) serotype III, UniProt P14996 1-362).
T3 chain: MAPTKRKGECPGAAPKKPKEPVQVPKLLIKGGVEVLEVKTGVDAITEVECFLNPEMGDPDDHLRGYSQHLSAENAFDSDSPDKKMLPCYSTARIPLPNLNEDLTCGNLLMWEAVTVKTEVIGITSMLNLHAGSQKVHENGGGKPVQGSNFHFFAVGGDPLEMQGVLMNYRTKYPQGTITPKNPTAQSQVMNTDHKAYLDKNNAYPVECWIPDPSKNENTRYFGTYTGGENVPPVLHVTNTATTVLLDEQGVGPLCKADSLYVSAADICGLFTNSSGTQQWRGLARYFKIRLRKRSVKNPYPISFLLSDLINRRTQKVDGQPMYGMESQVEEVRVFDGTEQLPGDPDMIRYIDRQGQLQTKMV
The assay can be described thus: SPR (Biacore): antibody captured via protein A, VLPs flowed over.

The target in a further assay is JCV L55F mutant VLPs (JC virus (JCV), UniProt P03089 1-354). As to the kind of experiment: SET, P8D11 at 9 nM or 1 pM, VLPs titrated, MSD read-out.

B1: NEG447A (antibody, human IgG1, lambda, V domains shown)
VH: QVQLQESGPGLVKPSETLSLTCTVSGGSISRDYWSWVRQPPGAGLEWIGNIYYSGSTNYNPSLKSRVTISVATNKKQFSLKLTSVTAADTAVYYCARVPGCSSTSCIDGWFDPWGQGILVTVSS
VL: QSVLTQPPSVSAAPGQKVTISCSGSSSNIGNTYVSWYQQLPGTAPKLLIYDNNKRPSGIPDRFSGSKSGTSATLGITGLQTGDEADYYCGTWDSSLSAWVFGGGTRLTVLG
With B1, the “fold greater affinity (reference NEG447 or P165E2, not clear)” value in assay [1] is around 10 fold.

B2: EBB-C1975-A3 (antibody, V domains shown)
VH: EVQLVETGGGLVQPGGSLRLSCAASGFTVRRNYMSWVRQAPGKGLEWVSGIYSGGSTYYADSVKGRFTISRDYSKNTLSLQMNTLRVEDTAVYFCAREDEFWSGYSAGVDWGQGTLVTVSS
VL: not shown
For B2, the binding result (in assay [2]; in the assay with BKV serotype III VLPs) was “no binding (tested: not printed)” in each case.

B3: EBB-C1975-E7 (antibody, human IgG1, kappa, V domains shown)
VH: EVQLLESGGGLVRPGGSLRVSCAASGFTVSRNYMSWVRQAPGKGLEWVSGIYGGGRTYYAESVKGRFTISRDYSKNTLFLQMNTLRVEDTALYFCAREDEFWSGYSAGVDWGQGTLVTVSS
VL: DIQVTQSPSSLSASVGDRVTITCRASQSISSYLNWYQQEPGKAPKLLIYAASTLQTGVPSRFSGSGSGTDFTLTISSLQPEDFATYYCQQSYNTPRTFGQGTKVEIKR
With B3, the binding result (in assay [2]; with BKV serotype III VLPs) was “no binding (tested: not printed)” each time.

B4: EBB-C1975-A7 (antibody, V domains shown)
VH: QVQLVESGGGLVQPGGSLRLSCAASGFTVSRNYMSWVRQAPGKGLEWVSGIYSGGSTYYADSVKGRFTISRDYSKNTLSLQMNTLRVEDTAVYFCAREDEFWSGYSAGVDWGQGTLVTVSS
VL: not shown
As to B4, the binding result (in assay [2]; in the assay with BKV serotype III VLPs) was “no binding (tested: not printed)” in each case.

B5: P8D11 (antibody, human IgG1, lambda)
heavy: not shown
light: QSVLTQPPSVSVAPGKTARITCGGDNIGSRPVHWYQQKPGQAPILVVYDDSNRPSGIPERFSGSNSGNTATLTISRVEAGDEADYYCQVWSSSTDHPFGGGTKVTVLGQPKAAPSVTLFPPSSEELQANKATLVCLISDFYPGAVTVAWKADSSPVKAGVETTTPSKQSNNKYAASSYLSLTPEQWKSHRSYSCQVTHEGSTVEKTVAPTECS
As to B5, the “fold lower affinity than for wild type (consensus) and S269F mutant VLPs” value with JCV L55F mutant VLPs was around 2 fold.

(Values after patent US20190002533A1 (Novartis, published 2019).)
